Reference: PMC7114565 (Virus Research, 2016)

System: SARS-CoV isolate Frankfurt-1

## C/C=C/C[C@@H](C)[C@@H](O)[C@H]1C(=O)N[C@@H](CC)C(=O)N(C)[C@H](C)C(=O)N(CC)[C@@H](C(C)C)C(=O)N[C@@H](C(C)C)C(=O)N(C)[C@@H](CC(C)C)C(=O)N[C@@H](C)C(=O)N[C@H](C)C(=O)N(C)[C@@H](CC(C)C)C(=O)N(C)[C@@H](CC(C)C)C(=O)N(C)[C@@H](C(C)C)C(=O)N1C [ALV, alisporivir]
  SI (CC50/EC50): >6.0
